Results of unrelated studies side by side (data: NIAID ChemDB).

All rows: tests in culture; agent: Adenovirus; read-out: EC50

ECn: concentration that inhibits the pathogen or its effect by n%. An empty or dashed field is not shown. Neighbouring rows are from separate reports.

smiles | cells | read by | strain | value
CCCSc1nsc(-c2ccccc2)c1C(=O)OC | HEP-2 | plaque count | TYPE 2 | >50 µg/mL
NC(=O)c1ncn([C@@H]2O[C@H](CO)[C@@H](O)[C@H]2O)n1 | HEL |  | TYPE 2 | >250 µM
OCC1=C[C@@H](O)[C@@H]2C=CO[C@@H](O[C@@H]3O[C@H](CO)[C@@H](O)[C@H](O)[C@H]3O)[C@H]12 | BCC-1/KMC | cytopathic effect | TYPE 11 | >200 µg/mL
Nc1ccn([C@H]2CC[C@@H](CO)O2)c(=O)n1 | HEL | PCR | TYPE 2 | 3.3 µM
O=c1cc(-c2ccccc2)oc2cc(O)c(O)c(O)c12 | BCC-1/KMC | cytopathic effect | TYPE 11 | >20 µg/mL
N#Cc1c(N2CCCCC2)nsc1-c1ccccc1 | HEP-2 | plaque count | TYPE 2 | >25 µg/mL
Nc1nc2c(ncn2CCC(CO)CO)c(=O)[nH]1 | HEL |  | TYPE 2 | >1000 µM
N#Cc1c(SCCO)nsc1-c1ccccc1 | HEP-2 | plaque count | TYPE 2 | >5 µg/mL
O=c1cc(-c2ccc(O)c(O)c2)oc2cc(O)cc(O)c12 | BCC-1/KMC | cytopathic effect | TYPE 3 | >25 µg/mL
CCCSc1nsc(-c2ccccc2)c1C(N)=O | HEP-2 | plaque count | TYPE 2 | >300 µg/mL
Nc1ncnc2c1ncn2C[C@@H](CO)OCP(=O)(O)O |  | cytopathic effect | Chicago (type 1) | 4 µg/mL
Nc1ccn(C[C@H]2COP(=O)(O)CO2)c(=O)n1 | HEL |  | TYPE 2 | 4.1 µM
Nc1ccnc2c1ncn2[C@H]1C=C[C@@H](OCP(=O)(O)O)O1 |  | cytopathic effect | Chicago (type 1) | 180 µg/mL
C[C@H]1[C@H](C)CC[C@]2(C(=O)O)CC[C@]3(C)C(=CC[C@@H]4[C@@]5(C)CC[C@H](O)C(C)(C)[C@@H]5CC[C@]43C)[C@H]12 | BCC-1/KMC | cytopathic effect | TYPE 11 | >20 µg/mL
Nc1ccn(C[C@@H](CO)OCP(=O)(O)O)c(=O)n1 |  | cytopathic effect | TAK (TYPE 41) | 3 µg/mL
Nc1cc(OC[C@@H](CO)OCP(=O)(O)O)nc(N)n1 | HEL |  | TYPE 2 | 14 µM
O=C(O)[C@H]1O[C@@H](Oc2cc3oc(-c4ccccc4)cc(=O)c3c(O)c2O)[C@H](O)[C@@H](O)[C@@H]1O | BCC-1/KMC | cytopathic effect | TYPE 3 | >50 µg/mL
O=c1[nH]c(=O)n([C@H]2C[C@H](O)[C@@H](CO)O2)cc1/C=C/Br | HEL |  | TYPE 2 | >1000 µM
CCSc1nsc(-c2ccccc2)c1C#N | HEP-2 | plaque count | TYPE 2 | >100 µg/mL